“And” between values parts separate entries of the source, which are not always exact repeats. Equal values may be shown once. Read-outs that look alike come from different tables or passages of the source.

The target in experiment [1] is native HIV-1 BaL envelope trimers on the surface of persistently infected human T cells (PM1) (HIV-1 BaL).
For experiment [2] the target is unchanged. The experiment is described as follows: flow cytometry on PM1 cells infected with HIV-1 BaL, pre-incubated with PG9 25 µg/ml (competitor), then sCD4 (4 domains) 1 µg/ml, detection with OKT4. (In flow cytometry, cells or beads pass a laser one at a time.)
Experiment [3] shares this target. The experiment is described as follows: flow cytometry on PM1 cells infected with HIV-1 BaL, pre-incubated with PG9 25 µg/ml (competitor), then sCD4 (4 domains) 5 µg/ml, detection with OKT4.

As for “soluble CD4 (4 domains) (from UniProt P01730 26-394) (receptor)”, the MFI in experiment [1] was 305 and 196; in experiment [2], 121; in experiment [3], 122.

(Values after patent publication US20150313990A1.)
